# Assay results reported in patent US7628992.
# Biological target: HV62 peptide (synthetic 62-residue polypeptide corresponding to residues 33-94 of human VAMP-2) (UniProt P63027)
substance,measurement,value
recombinant wild-type TeTx L chain (freed from MBP with factor Xa),initial rate of substrate cleavage at 37° C. with 100 nM L chain,21.6 pmol/min
